Compound potency records, mixed from different reports. Data source: NIAID ChemDB in PubChem.

All rows: growth or infection tests; organism: HIV-1; method: MTT; read-out: EC50

An empty or dashed field is not shown. Neighbouring rows are from separate reports. ECn: concentration that inhibits the pathogen or its effect by n%. a–b is a range or a potency band.

compound	changes	strain	cell line	value
CCOC(=O)c1c(C)n([C@H]2C[C@@H]2c2ccccc2)c2ccc(OC(C)=O)c(O)c12		NL4-3	MT-4	6.37 µM
CSC1=NC2(C[C@@H]2c2ccccc2)C(=O)N1C(C)=O		RK	MT-4/C8166 + MT-4	2.3–5.8 µg/mL
COc1cc(C[C@H]2CO[C@H](c3ccc(O[C@@H]4O[C@H](O)[C@@H](O)[C@H](O)[C@H]4O)c(OC)c3)[C@H]2CO)ccc1O		IIIB	C8166	>200 µg/mL
c1ccc2nc3ccccc3cc2c1		Latently infected cell	ACH2	>50 µM
Cn1c2ccccc2c(=O)c2c(O)cccc21		IIIB	MOLT-4	>14.8 µg/mL
COc1cc2c(cc1OC)C1=NOC(c3ccc(F)cc3)C1C2		IIIB	MT-4	9.05 µM
CCCS(=O)(=O)NC(=O)c1[nH]c2ccc(Cl)cc2c1S(=O)(=O)c1cc(C)cc(C)c1		RES056	MT-4	>141 µM
Clc1ccc(-c2nn3c(-c4cccc(Br)c4)nnc3s2)cc1Cl		IIIB	MT-4	>4.12 µg/mL
C=Cn1cc(C(=O)O)c(=O)c2ccc(N3CCN(c4cccc(C(F)(F)F)c4)CC3)nc21		IIIB	MT-4	0.6 µM
Cc1cn([C@H]2C[C@H](N=[N+]=[N-])[C@@H](CO)O2)c(=O)[nH]c1=O		IIIB	MT-4	0.0085 µg/mL
Cc1cc(/C=C/C#N)cc(C)c1Oc1nc(NC2CCN(Cc3ccc(Cl)cc3)CC2)nc2ccsc12		RES056	MT-4	0.195 µM
Clc1cccc(Cl)c1Cc1nnc(Nc2ccc(COCc3ccco3)cc2)o1		IIIB	MT-2	3.1 µM
Cc1ccccc1CN1CCC(Nc2nc(Oc3c(C)cc(/C=C/C#N)cc3C)c3sccc3n2)CC1	NNRTI-resistant (RT L100I)	IIIB	MT-4	0.0472 µM
C[Si](C)(CCCn1ccc2ccccc21)O[Si](C)(C)CCCn1ccc2ccccc21		IIIB	MT-2	1 µM
COc1cc2c(cc1OC)C1=NOC(c3cc(OC)c(OC)c(OC)c3)C1C2		IIIB	MT-4	>13.47 µM
COc1cccc(/C=N/NC(=O)c2c(O)c3ccccc3[nH]c2=O)c1			MT-4	>100 µg/mL
C=Cn1cc(C(=O)O)c(=O)c2ccc(N3CCN(c4cccc(C(F)(F)F)c4)CC3)cc21		IIIB	MT-4	0.19 µM
CNc1ccccc1C(=O)NCCC[Si](C)(C)O[Si](C)(C)CCCNC(=O)c1ccccc1NC		IIIB	MT-2	9 µM
COc1cc(C[C@H]2CO[C@H](c3ccc(O[C@@H]4O[C@H](COC(C)=O)[C@@H](O)[C@H](O)[C@H]4O)c(OC)c3)[C@H]2CO)ccc1O		IIIB	C8166	>200 µg/mL
C=C1C[C@@]23CC[C@@H]4C(C)(C)[C@H](O)CC[C@@]4(C)[C@@H]2C[C@@H]1[C@@H](O)C3=O			MT-4	>25 µg/mL
COc1cc([C@H]2OC[C@@H]3[C@H]2CO[C@@H]3c2cc(OC)c(O)c(OC)c2)cc(OC)c1O		IIIB	C8166	>200 µg/mL
Cn1cc(C(=O)O)c(=O)c2sc(N3CCN(c4nc5ccccc5s4)CC3)nc21		IIIB	MT-4	>2.05 µM
COc1ccc(NC(=S)Nc2nc(NCCc3ccc(OC)c(OC)c3)nc(Oc3cc(=O)oc4ccccc34)n2)cc1		IIIB	MT-4	>56.45 µg/mL
CC(C)=Nn1cc(C(=O)O)c(=O)c2cc(N)c(N3CCN(c4ccccn4)CC3)cc21		IIIB	MT-4	>1.11 µM
Cc1c(C(C#N)c2ccccc2)nc(SC(C)C)[nH]c1=O		IIIB	MT-4	0.002 µM
COc1cc2c(cc1OC)C1=NOC(c3c(Cl)cccc3Cl)C1C2		IIIB	MT-4	>53.2 µM
COc1ccc(S(=O)(=O)N(CC(C)C)C[C@@H](O)[C@H](Cc2ccccc2)NC(=O)OCO[C@H]2C[C@H]3OCC4(CNC(=O)O4)[C@H]3C2)cc1		LAI	MT-2	0.093 µM
C=Cn1cc(C(=O)O)c(=O)c2cc(N)c(N3CCN(c4ccccn4)CC3)cc21		IIIB	MT-4	0.033 µM
COc1cc([C@H]2c3cc(O)c(OC)cc3C[C@@H](COC(C)=O)[C@@H]2CO)ccc1O		IIIB	C8166	100.7 µg/mL
COc1ccc(S(=O)(=O)N(CC(C)C)C[C@@H](O)[C@@H]2Cc3ccc(cc3)OCCCCCCCc3c(O)cccc3C(=O)N2)cc1		LAI	MT-2	0.8 µM
Cc1cc(C)cc(S(=O)(=O)c2c(C(=O)NS(=O)(=O)c3ccc(F)cc3F)[nH]c3ccc(Cl)cc23)c1		RES056	MT-4	>167 µM
C[Si](C)(CCCSc1nc2cc(Cl)ccc2s1)O[Si](C)(C)CCCSc1nc2cc(Cl)ccc2s1		IIIB	MT-2	11 µM
Nc1ccc2nc3ccccc3cc2c1		Latently infected cell	ACH2	>50 µM
COc1cc([C@H]2OC[C@H]3[C@@H]2CO[C@@H]3c2cc(OC)c(O[C@@H]3O[C@H](O)[C@@H](O)[C@H](O)[C@H]3O)c(OC)c2)cc(OC)c1O		IIIB	C8166	>200 µg/mL
Cc1cc(C#N)cc(C)c1Oc1nc(NC2CCC(NCc3ccccc3)CC2)nc2ccsc12	NNRTI-resistant (RT F227L V106A)	IIIB	MT-4	1.05 µM
Oc1ccc(-c2nnc3sc(-c4ccco4)nn23)c(Cl)c1Cl		IIIB	MT-4	>27.51 µg/mL
Cc1ccc(/C=c2\c(=O)sc3nc4c(c(=S)n23)C2=C(CCC/C2=C\c2ccncc2)C(c2ccncc2)S4)cc1			T4	71.3 µM
Cc1cc(/C=C/C#N)cc(C)c1Oc1nc(NC2CCN(Cc3ccccc3Br)CC2)nc2ccsc12	NNRTI-resistant (RT E138K)	IIIB	MT-4	0.145 µM
CC1(C)[C@H]2CC[C@@]34CC[C@@H](C[C@H]3[C@]2(C)CC[C@@H]1O)C([C@@H](O)CO)C4			MT-4	>25 µg/mL
Cc1cc(C)cc(S(=O)(=O)c2c(C(=O)NS(=O)(=O)C(F)(F)F)[nH]c3ccc(Cl)cc23)c1	Y181C		MT-4	45.79 µM
Cc1cn([C@H]2C[C@H](N=[N+]=[N-])[C@@H](CO)O2)c(=O)[nH]c1=O			MT-4	0.0086 µg/mL
CCOC(=O)CNc1nc(Nc2ccccc2)nc(Oc2cc(=O)oc3ccccc23)n1		IIIB	MT-4	>61.15 µg/mL
Cc1cc(C)cc(S(=O)(=O)c2c(C(=O)NS(=O)(=O)c3ccccc3)[nH]c3ccc(Cl)cc23)c1		RES056	MT-4	>131 µM
Nc1ccn([C@H]2CC[C@@H](CO)O2)c(=O)n1		Clinical isolate	MT-4	3.88 µg/mL
COc1ccc(CCNc2nc(NC(=S)Nc3ccc4ccccc4c3)nc(Oc3cc(=O)oc4ccccc34)n2)cc1OC		IIIB	MT-4	>54.6 µg/mL
Oc1ccc(-c2nn3c(-c4ccc(O)c(Cl)c4Cl)nnc3s2)c(Cl)c1Cl		IIIB	MT-4	>67.8 µg/mL
Clc1ccc(Nc2nnc(Nc3c(Cl)cccc3Cl)o2)cc1		IIIB	MT-2	>100 µM
COc1cc([C@H]2c3cc(O)c(OC)cc3C[C@@H](CO)[C@@H]2CO)ccc1O		IIIB	C8166	>200 µg/mL
Nn1cc(C(=O)O)c(=O)c2ccc(N3CCN(c4nc5ccccc5s4)CC3)nc21		IIIB	MT-4	1.18 µM
Oc1ccc(-c2nnc3sc(-c4cnccn4)nn23)c(Cl)c1Cl		IIIB	MT-4	>2.11 µg/mL
c1ccc(COC2C3COC(O3)C(OCc3ccccc3)C2OCc2ccccc2)cc1			MT-4	0.05 µg/mL
C[C@@H]1CN2C[C@H]3CCC4=C5C(=CC[C@@]56C(=O)C1C[C@@H]2[C@@]36C)CC[C@@]41C[C@H]2CC[C@@H]3CN4C[C@@H](C)[C@H]5C[C@@H]4[C@]3(C)[C@]3(CCC1=C23)C5=O		NL4-3	MT-4	4.5 µM
C=Cn1cc(C(=O)O)c(=O)c2ccc(N3CCN(c4ccccn4)CC3)cc21		IIIB	MT-4	0.08 µM
N#Cc1ccc(Oc2cc(Cl)ccc2Cl)c(COCc2ccncc2)c1		IIIB	MT-2	12 µM
COC(=O)c1ccc(CN2CCC(Nc3nc(Oc4c(C)cc(C#N)cc4C)c4ccsc4n3)CC2)cc1	NNRTI-resistant (RT K103N)	IIIB	MT-4	0.0291 µM
NC1=NC=NC2C1N=CN2[C@H]1C[C@@H](CCP(=O)(O)O)CO1			MT-4	12.6 µg/mL
Cc1cn(CCC[Si](C)(O)c2ccccc2)c(=O)[nH]c1=O		IIIB	MT-2	25 µM
Clc1cccc(Nc2nnc(Cc3c(Cl)cccc3Cl)o2)c1		IIIB	MT-2	4.3 µM
O=c1sc2nc3c(c(=S)n2/c1=C/c1ccc(Cl)cc1)C1=C(CCC/C1=C\c1ccncc1)C(c1ccncc1)S3			T4	71.6 µM
COc1cc([C@H]2OC[C@H]3[C@@H]2CO[C@H]3c2cc(OC)c(O)c(OC)c2)cc(OC)c1O		IIIB	C8166	>200 µg/mL
C[C@@]12CCC(=O)[C@@](C)(COC(=O)c3ccccc3)[C@H]1CC[C@@]13CC[C@@H](C[C@H]12)C([C@@H](O)CO)C3			MT-4	>25 µg/mL
Nn1cc(C(=O)O)c(=O)c2cc(O)c(N3CCN(c4ccccn4)CC3)cc21		IIIB	MT-4	28.44 µM
Fc1ccc(Nc2ncc(Cc3c(Cl)cccc3Cl)o2)cc1		IIIB	MT-2	0.43 µM
C[Si](C)(CCCn1cnc2c(N)ncnc21)O[Si](C)(C)CCCn1cnc2c(N)ncnc21		IIIB	MT-2	86 µM
Cc1c(N)nc(Nc2ccc(C#N)cc2)nc1C(C)c1c(F)cccc1F		NL4-3	MT-4	0.0006 µM
COc1cccc(F)c1C(=O)c1nc(N(C)C)nc(OC)c1C		IIIB	MT-4	>7.8 µM
COc1cc2c(cc1OC)C1=NOC(c3cccc(N)c3)C1C2		IIIB	MT-4	>13.83 µM
Cc1cc(Nc2nnc(Cc3c(Cl)cccc3Cl)o2)ccc1Cl		IIIB	MT-2	1.7 µM
COc1ccc(S(=O)(=O)N(CC(C)C)C[C@@H](O)[C@H](Cc2ccccc2)NC(=O)OCO[C@H]2C[C@H]3OCC4(CC[C@@H](OC)O4)[C@H]3C2)cc1		LAI	MT-2	0.38 µM
C=C(C)[C@@]12OC3(C)O[C@@H]1[C@@H]1[C@H](O)[C@@](C)(O)[C@@H](O)[C@@]4(O)[C@@H](C=C(C)[C@@H]4OC(C)=O)[C@@]1(O3)[C@H](C)[C@@H]2OC(=O)c1ccccc1			C8166	9.93 µg/mL
Nn1cc(C(=O)O)c(=O)c2ccc(N3CCN(c4nc5ccccc5s4)CC3)cc21		IIIB	MT-4	2.3 µM
COc1ccc2c(c1)OCC/C=C\CN(C[C@@H](O)[C@H](Cc1ccccc1)NC(=O)O[C@H]1CO[C@H]3OCC[C@H]31)S2(=O)=O		LAI	MT-2	0.02 µM
Cc1ccc(Nc2ncc(Cc3c(Cl)cccc3Cl)o2)cc1		IIIB	MT-2	1 µM
FC(F)(F)[C@@]1(C#CC2CC2)OC(=S)Nc2ccc(Cl)cc21	NNRTI-resistant (RT 103N/181C)	190A	MT-4	0.006 µM
COc1ccc(C2ON=C3c4cc(OC)c(OC)cc4CC32)cc1		IIIB	MT-4	>12.5 µM
c1ccc(COC2C3COC(O3)C(OCc3ccccc3)C2OCc2ccccc2)cc1			MT-4	2.14 µg/mL
O=C1CSc2nnc(-c3ccc(Cl)c(Cl)c3)n2N1		IIIB	MT-4	>35.23 µg/mL
O=C(O)c1ccc(Nc2ccc3ccccc3c2O)cc1			MT-4	>70.07 µM
COc1cc([C@H]2OC[C@H]3[C@@H]2CO[C@H]3c2ccc(O)c(OC)c2)ccc1O		IIIB	C8166	>200 µg/mL
Cc1cn([C@H]2C[C@H](N=[N+]=[N-])[C@@H](CO)O2)c(=O)[nH]c1=O			C8166	0.004 µg/mL
CCOC(=O)CNc1nc(NC(=O)Nc2ccccc2)nc(Oc2cc(=O)oc3ccccc23)n1		IIIB	MT-4	>125 µg/mL
COc1cc([C@H]2c3cc(O)c(OC)cc3C[C@H]3COC[C@@H]32)ccc1O		IIIB	C8166	82 µg/mL

A second listing of 10 rows from above:

compound | changes | strain | cell line | value
COc1ccc(CCNc2nc(NC(=S)Nc3ccc4ccccc4c3)nc(Oc3cc(=O)oc4ccccc34)n2)cc1OC |  | IIIB | MT-4 | >54.6 µg/mL
C[C@@]12CCC(=O)[C@@](C)(COC(=O)c3ccccc3)[C@H]1CC[C@@]13CC[C@@H](C[C@H]12)C([C@@H](O)CO)C3 |  |  | MT-4 | >25 µg/mL
Clc1cccc(Cl)c1Cc1nnc(Nc2ccc(COCc3ccco3)cc2)o1 |  | IIIB | MT-2 | 3.1 µM
Oc1ccc(-c2nnc3sc(-c4cnccn4)nn23)c(Cl)c1Cl |  | IIIB | MT-4 | >2.11 µg/mL
COc1cc2c(cc1OC)C1=NOC(c3c(Cl)cccc3Cl)C1C2 |  | IIIB | MT-4 | >53.2 µM
C[Si](C)(CCCn1ccc2ccccc21)O[Si](C)(C)CCCn1ccc2ccccc21 |  | IIIB | MT-2 | 1 µM
COc1cc([C@H]2c3cc(O)c(OC)cc3C[C@@H](COC(C)=O)[C@@H]2CO)ccc1O |  | IIIB | C8166 | 100.7 µg/mL
c1ccc(COC2C3COC(O3)C(OCc3ccccc3)C2OCc2ccccc2)cc1 |  |  | MT-4 | 2.14 µg/mL
Cn1c2ccccc2c(=O)c2c(O)cccc21 |  | IIIB | MOLT-4 | >14.8 µg/mL
Cc1cn([C@H]2C[C@H](N=[N+]=[N-])[C@@H](CO)O2)c(=O)[nH]c1=O |  |  | MT-4 | 0.0086 µg/mL